Values of other authors in patent US9045248B2 (priority 2007, dated 2015).

Molecular target: influenza virus RNP (Influenza A virus, UniProt P03428)
Settings: read-out: IC50 measured by inhibition of capped RNA cross-linking by cap analogues; cited from earlier work

In the case of `C[n+]1cn([C@@H]2O[C@H](COP(=O)(O)OP(=O)([O-])OP(=O)(O)OC[C@H]3O[C@@H](n4cnc5c(=O)[nH]c(N)nc54)[C@H](O)[C@@H]3O)[C@@H](O)[C@H]2O)c2nc(N)[nH]c(=O)c21` [m^7GpppG, 7-methyl-guanosine linked via a 5′ to 5′ triphosphate bridge to guanosine], the pIC50 is given as 3.90.

pIC50: −log10 of the molar value.
